Reference: article PMC3006207, “Phosphorylation-Dependent Protein Interaction with Trypanosoma brucei 14-3-3 Proteins that Display Atypical Target Recognition” (PLoS ONE, 2010)

T1: GST-14-3-3ζ (human 14-3-3ζ) (human, UniProt P63104 1-245)
T1 construct: human 14-3-3 zeta
T1 sequence (looked up): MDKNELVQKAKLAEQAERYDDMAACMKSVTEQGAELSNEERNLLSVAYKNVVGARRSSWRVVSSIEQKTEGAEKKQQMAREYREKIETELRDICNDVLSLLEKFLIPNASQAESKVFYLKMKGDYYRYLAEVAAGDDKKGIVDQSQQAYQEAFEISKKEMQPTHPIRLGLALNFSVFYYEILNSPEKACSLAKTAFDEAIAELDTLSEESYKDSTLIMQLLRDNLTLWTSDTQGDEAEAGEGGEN


Target: T1, GST-14-3-3ζ (human 14-3-3ζ)
Experiment: far-Western, overlay or dot blot
Conditions: both partners purified

Binder | binding result
MGGGLTRSRSL (biotinylated; phosphoserine (residue 10 of the peptide, S744 of PP2c), source: synthetic peptide (bought: Scrum, Japan)) [synthetic phosphopeptide MGGGLTRSRpSL derived from PP2c-W] | binds
MGGGHVSGLKRRRSV (biotinylated; phosphoserine (residue 14 of the peptide, S286 of p31-SAP), source: synthetic peptide (bought: Scrum, Japan)) [synthetic phosphopeptide MGGGHVSGLKRRRpSV derived from p31-SAP] | binds
